Data on two molecules can be found in patent US20260215432A1, “ANTIMICROBIAL CONJUGATED OLIGOELECTROLYTES AND METHODS THEREOF” (National University of Singapore, priority 2023, published 2026).

The data set deals with A549 (lung epithelial cells). The experiment in a line: Cytotoxicity against mammalian cell line. It counts as cell-based. Particulars: IC50 (A549) divided by MIC towards MRSA. Here is the method:
The cytotoxicity of the TPP COEs was also tested against a mammalian cell line (A549).

In the case of `C[N+](C)(C)CCCCCCOc1ccc(/C=C/c2ccc(OCCCCCC[N+](C)(C)C)cc2)cc1.[I-].[I-]` [Compound D6, reference compound], the “Selectivity Index” value stood at 1.2. The same measure for `C[N+](C)(C)CCCCCCCCOc1ccc(/C=C/c2ccc(OCCCCCCCC[N+](C)(C)C)cc2)cc1.[I-].[I-]` [Compound D8, reference compound]: 1.4.
